Measured values taken from patent US20070059272A1 (priority 2005, published 2007).

What was measured:
[1] = tested on: PA-I promoter activity in reporter strain PA27853/PLL-EGFP; test: Fluorescence of GFP-PA-I reporter strain PA27853/PLL-EGFP; details: opioid agonist 60 μM, HDMEM, up to 9 hours
[2] = tested on: pyocyanin (PCN) production in P. aeruginosa 27853; test: Pyocyanin assay, 27853; details: 27853, overnight in TSB, varying concentrations
[3] = tested on: PA-I expression in P. aeruginosa; test: In vitro PA-I expression in P. aeruginosa, summary statements; type: cell-based, Pseudomonas aeruginosa; details: strains PA27853 and PAO1
[4] = tested on: PA-I protein expression in PAO1; test: PA-I (PA-IL) protein immunoblot in PAO1; type: cell-based, Pseudomonas aeruginosa; details: PAO1, 100 μM U-50,488, cell density 1.8 (OD600 nm)
PAO1 = test: Biofilm formation assay, PAO1; details: PAO1, U-50,488 added at inoculation, overnight
[5] = tested on: pyocyanin (PCN) production in P. aeruginosa PAO1; test: Pyocyanin assay, PAO1; type: cell-based, Pseudomonas aeruginosa

trans-3,4-dichloro-N-methyl-N[2-(1-pyrolidinyl)cyclohexyl]benzeneacetamide methanesulfonate
PA-I expression as judged by fluorescence of the GFP reporter strain [1]: Marked fluorescence
PA-I expression as judged by fluorescence of the GFP reporter strain ([1]; listed as U-50488): greatest effect on PA-I expression
PCN production (OD520 nm) [2]: dose-dependent effect on PCN production
response to express PA-I [3]: robust response
PA-IL protein expression [4]: increase in PA-IL protein expression
biofilm formation (PAO1): enhanced biofilm formation
onset of PCN production versus cell density ([5]; PAO1, TSB, 200 μM compound): shift in the production of PCN at lower cell densities
colour of culture after overnight exposure ([5]; PAO1, TSB, 1 mM compound): intensely bright green color
PCN production (OD520 nm) ([5]; PAO1, overnight in TSB, varying concentrations): dose-dependent effect on PCN production
